Anti-infective test results gathered from many reports (values: NIAID ChemDB through PubChem).

All rows: whole-cell or culture tests; species: Vaccinia virus; cells: VERO; measure: EC50

Blank or dashed fields: not listed here. Neighbouring rows are from separate reports. ECn is the concentration giving n% inhibition of infection, replication or growth.

{"smiles": "Nc1nc(N)c2c(ncn2[C@@H]2O[C@H](CO)[C@@H](O)[C@H]2O)n1", "strain": "Lederle chorioallantoic", "value": "2.3 µg/mL"}
{"smiles": "CC(=O)OC[C@H]1O[C@H](OC(=O)NS(=O)(=O)OC[C@H]2O[C@@H](n3ccc(=O)[nH]c3=O)[C@H](OC(C)C)[C@@H]2OC(C)C)[C@@H](OC(C)=O)[C@@H](OC(C)=O)[C@@H]1OC(C)=O", "value": ">100 µg/mL"}
{"smiles": "Nc1nc(=O)n([C@@H]2OC3COP(=O)([O-])OC3[C@H]2O)cc1F", "value": "290 µM"}
{"smiles": "Nc1nccc2c1ncn2[C@@H]1C=C(CO)[C@@H](O)[C@H]1O", "strain": "Lederle CA", "value": "0.3 µg/mL"}
{"smiles": "CC(C)O[C@@H]1[C@H](OC(C)C)[C@@H](COS(=O)(=O)NC(=O)O[C@H]2O[C@H](COC(=O)c3ccccc3)[C@@H](OC(=O)c3ccccc3)[C@H](OC(=O)c3ccccc3)[C@H]2OC(=O)c2ccccc2)O[C@H]1n1ccc(=O)[nH]c1=O", "value": "20 µg/mL"}
{"smiles": "Nc1nccc2c1nnn2[C@@H]1O[C@H](CO)[C@@H](O)[C@H]1O", "value": ">398 µM"}
{"smiles": "Clc1ccc(CCCCCOc2ccc(C3=NCCO3)cc2)s1", "value": "30 µM"}
{"smiles": "Nc1ccn([C@@H]2C=C(CO)[C@@H](O)[C@H]2O)c(=O)n1", "strain": "VAC", "value": "0.04 µg/mL"}
{"smiles": "CN(C)CCN1C(=O)c2cccc3cc(N)cc(c23)C1=O", "value": ">4 µg/mL"}
{"smiles": "Cn1cc(CCCCOc2ccc(C(=O)O)cc2)cc1C=O", "value": ">380 µM"}
{"smiles": "CC1(C)OC2C(O1)[C@@H](COS(=O)(=O)NC(=O)OC(COCc1ccccc1)OCc1ccccc1)O[C@H]2n1ccc(=O)[nH]c1=O", "value": "54 µg/mL"}
{"smiles": "Nc1nccc2nn([C@H]3C[C@H](O)[C@@H](CO)O3)nc12", "value": "200 µM"}
{"smiles": "Nc1[nH]c(=O)ncc1F", "value": ">5000 µM"}
{"smiles": "Nc1nc2c(ncn2CC(CO)OCP(=O)(O)O)c(=O)[nH]1", "value": "0.8 µM"}
{"smiles": "CC(C)O[C@@H]1[C@H](OC(C)C)[C@@H](COS(=O)(=O)NC(=O)O[C@H]2O[C@H](COCc3ccccc3)[C@@H](OCc3ccccc3)[C@H](OCc3ccccc3)[C@H]2OCc2ccccc2)O[C@H]1n1ccc(=O)[nH]c1=O", "value": "1 µg/mL"}
{"smiles": "OC[C@H]1C[C@@H](n2cnc3c(Cl)ncnc32)[C@H](O)[C@@H]1O", "strain": "Lederle chorioallantoic", "value": "13 µg/mL"}
{"smiles": "Nc1ncnc2c1nc(Cl)n2[C@@H]1O[C@@H]2COP(=O)(O)O[C@H]2[C@H]1O", "value": "32 µM"}
{"smiles": "Nc1ncnc2c1ncn2C[C@@H](CO)OCP(=O)(O)O", "value": "8.1 µg/mL"}
{"smiles": "CC(C)OC1[C@H](n2ccc(=O)[nH]c2=O)O[C@H](COS(=O)(=O)NC(=O)N[C@@H]2O[C@H](COC(=O)c3ccccc3)[C@@H](OC(=O)c3ccccc3)[C@H](OC(=O)c3ccccc3)[C@H]2OC(=O)c2ccccc2)[C@H]1OC(C)C", "value": "50 µg/mL"}
{"smiles": "Nc1ncnc2c1ncn2[C@@H]1C=C(CO)[C@@H](O)[C@H]1O", "strain": "VAC", "value": ">100 µg/mL"}
{"smiles": "CC(C)O[C@@H]1[C@H](OC(C)C)[C@@H](COS(=O)(=O)NC(=O)O[C@H]2O[C@H](COC(=O)c3ccccc3)[C@@H](OC(=O)c3ccccc3)[C@H](OC(=O)c3ccccc3)[C@@H]2OC(=O)c2ccccc2)O[C@H]1n1ccc(=O)[nH]c1=O", "value": ">100 µg/mL"}
{"smiles": "OC[C@H]1O[C@@H](n2nc3ccnc(Cl)c3n2)[C@H](O)[C@@H]1O", "value": ">398 µM"}
{"smiles": "CC(=O)OC[C@H]1O[C@@H](OC(=O)NS(=O)(=O)OC[C@H]2O[C@@H](n3ccc(=O)[nH]c3=O)[C@H](OC(C)C)[C@@H]2OC(C)C)[C@@H](OC(C)=O)[C@@H](OC(C)=O)[C@@H]1OC(C)=O", "value": ">100 µg/mL"}
{"smiles": "Nc1nccc2c1nnn2[C@H]1CC[C@@H](CO)O1", "value": ">387 µM"}
{"smiles": "CC(=O)O[C@H]1C[C@H](n2cc(C)c(=O)[nH]c2=O)O[C@@H]1COS(=O)(=O)NC(=O)O[C@H]1O[C@H](COC(=O)c2ccccc2)[C@@H](OC(=O)c2ccccc2)[C@H](OC(=O)c2ccccc2)[C@H]1OC(=O)c1ccccc1", "value": ">200 µg/mL"}
{"smiles": "COc1ncnc2c1ncn2[C@@H]1C[C@H](CO)[C@@H](O)[C@H]1O", "strain": "Lederle chorioallantoic", "value": "21 µg/mL"}

A second listing of 4 rows from above:

smiles | strain | value
Nc1nccc2c1nnn2[C@H]1CC[C@@H](CO)O1 | - | >387 µM
COc1ncnc2c1ncn2[C@@H]1C[C@H](CO)[C@@H](O)[C@H]1O | Lederle chorioallantoic | 21 µg/mL
Cn1cc(CCCCOc2ccc(C(=O)O)cc2)cc1C=O | - | >380 µM
CC(C)O[C@@H]1[C@H](OC(C)C)[C@@H](COS(=O)(=O)NC(=O)O[C@H]2O[C@H](COC(=O)c3ccccc3)[C@@H](OC(=O)c3ccccc3)[C@H](OC(=O)c3ccccc3)[C@@H]2OC(=O)c2ccccc2)O[C@H]1n1ccc(=O)[nH]c1=O | - | >100 µg/mL